According to US10227373B2 (priority 2014, dated 2019):

System: MDCK cells
Assay: Cell viability (CC50), MDCK host cells

Work on `Nc1ncc(Br)c2c1ncn2[C@@H]1C=C(CO)[C@@H](O)[C@H]1O` [3-Bromo-3-deazaneplanocin] yielded a CC50 (Flu A (H1N1) assay) of 220 µM, a CC50 (Flu A (H3N2) assay) of over 290 µM and a CC50 (Influenza B assay) of 1.1 µM.
